Compound potency records, mixed from different reports. Data source: NIAID ChemDB in PubChem.

All rows: tests in culture; species: Mycobacterium tuberculosis

An empty or dashed field is not shown. MIC50, MIC90 and the like: level of inhibition, or share of isolates inhibited. Lines come from different laboratories, so protocols vary. MIC bound comes from a single tested concentration. Percent inhibition refers to the dose given; in toxicity tests it is the harm to the cells. For "inactive" no cut-off is given.

compound,dose,endpoint,changes,setting,strain,read by,result
Cc1ccc2c(c1)nc1cc(Nc3ccc(Cl)cc3)c(=NC3CCCCCCC3)cc-1n2-c1ccc(Cl)cc1,-,MIC,-,-,H37Rv,-,0.2 µg/mL
Cc1ccc2c(c1)NC(c1ccccn1)S2,-,MIC,-,-,H37Rv,-,3.1 µg/mL
CC(=O)NC1=C(Cl)C(=O)c2ccccc2C1=O,-,MIC bound,-,-,H37Rv,BACTEC,≤12.5 µg/mL
COC(=O)c1ccc2oc3c(C(=O)OC)cc([N+](=O)[O-])cc3c(=O)c2c1,4 µg/mL,inhibition,-,-,H37Rv,-,inactive
COc1ccc(C=C2C(=O)N=C(C)N2c2cc(C(C)C)c(O)cc2C)cc1,100 µg/mL,inhibition,-,-,H37Rv,-,inactive
CN1CCC(CN2c3ccccc3Sc3ccccc32)C1,-,MIC,-,-,H37RA 16,-,5 µg/mL
N#Cc1c(N)sc2sc(-c3ccccc3)cc12,-,MIC,-,multidrug-resistant,MDR-TB,-,>97.5 µM
Cc1ccc2oc3c(=O)c4ccccc4c(=O)c=3oc2c1,12.5 µg/mL,inhibition,-,-,H37Rv,BACTEC,11%
CN[C@@H]1[C@H](O[C@H]2[C@H](O[C@H]3[C@H](O)[C@@H](O)[C@H](N=C(N)N)[C@@H](O)[C@@H]3N=C(N)N)O[C@@H](C)[C@]2(O)C=O)O[C@@H](CO)[C@H](O)[C@H]1O,-,MIC,Spiroindene-resistant,-,TB365,turbidity,0.5 µM
Nc1c(C(=O)Nc2ccccc2)[n+]([O-])c2ccccc2[n+]1[O-],-,MIC,-,-,PAS-R,-,6.3 µg/mL
Oc1ccc(Cl)c2cccnc12,-,MIC90,-,-,20 isolates drug-resistant,-,0.25 µg/mL
O=[N+]([O-])c1ccc(N=Nc2c(Cl)c(O)c3ccccc3c2O)nc1,-,MIC,-,-,INH-r,-,>12.5 µg/mL
Cc1cc(O)c(C(C)C)cc1N1C(=O)C(C)SC1c1ccccc1O,100 µg/mL,inhibition,-,-,H37Rv,-,inactive
S=C(S)N1CCCCCC1,-,MIC,-,-,H37Rv,resazurin,0.39 µg/mL
Cc1cc(C)c2oc3ccccc3c(=O)c2c1[N+](=O)[O-],8 µg/mL,inhibition,-,-,H37Rv,-,inactive
CN(C)C(=S)Oc1ccc(-c2c(-c3ccccc3)oc3ccc4ccccc4c23)cc1,-,MIC bound,-,-,H37Rv,BACTEC,>12.5 µg/mL
Oc1ccc(C2SC=C3SC(/N=C\c4ccccc4O)=NN32)cc1,-,MIC,-,-,H37Rv,resazurin,3.125 µg/mL
NNC(=O)c1ccncc1,-,MIC50,-,-,19 strains,-,0.1 µg/mL
COc1ccc(NC(=O)c2c(Nc3cccc(C)c3C)[nH]n3c(=O)cc(C)nc23)cc1,-,MIC,-,-,H37Rv,resazurin,50 µg/mL
O=C(N/N=C/C(O)C(O)C(O)C(O)CO)C(=O)N/N=C/C(O)C(O)C(O)C(O)CO,12.5 µg/mL,inhibition,-,-,H37Rv,BACTEC,-24%
C=C[C@@H](O)C#CC#CC/C=C\CCCCCCC,-,MIC,-,-,H37Ra,resazurin,25.6 µM
Cc1ccc(-c2noc(C3=CC4(CCN(CC5CCCO5)CC4)c4ccccc43)n2)cn1,-,MIC,Drug-resistant,-,ATCC 2794,resazurin,1.56 µM
O=c1c2ccccc2oc2nc3cc(Cl)ccc3n12,6.25 µg/mL,inhibition,-,-,H37Rv,-,-4%
NNC(=O)c1ccncc1,-,MIC,-,-,ATCC 27294,resazurin,0.22 µM
CCOC(=O)/C=C/c1ccc(OC)cc1,-,MIC,-,-,BTB08-072,resazurin,242 µM
COC(=O)[C@]1([C@]2(C)CCC(=O)O2)CC(=O)c2c(cc3c(c2O)C2C=CC4(C3)C(=O)c3cc(C)cc(O)c3C(=O)[C@@]4(O)C2=O)O1,-,MIC,-,-,-,-,216.6 µg/mL
COc1ccc(CN2C(=O)C3(CCN(CC4CCCO4)CC3)c3ccccc32)cc1,-,MIC,-,-,H37Rv,resazurin,50 µM
C=CC(C)(C)c1c2c(c(O)c3ccc(=O)oc13)C=CC(C)(C)O2,-,MIC,-,-,-,-,50 µg/mL
CCOC(=O)c1c(N)sc2sc(-c3ccc(Cl)cc3Cl)cc12,-,MIC,-,multidrug-resistant,MDR-TB,-,4.2 µM
COc1ccc(-c2noc(C3=CC4(CCN(CC5CCCO5)CC4)c4ccccc43)n2)cc1,-,MIC,Spiroindene-resistant,-,TB376,turbidity,3 µM
CC1[C@@H](CO)O[C@@H](O[C@H](CCCCCCCCCC(=O)CCCCCCCCCCCC[C@@H](O)[C@@H](C)N)[C@@H](N)CO)[C@H](O)[C@H]1O,-,MIC,-,-,-,-,10 µg/mL
Cc1nc([N+](=O)[O-])cn1CC1CO1,6.25 µg/mL,inhibition,-,-,H37Rv,resazurin,4%
O=C(O)c1ccc(NS(=O)(=O)c2ccc(NC3=CC(=O)c4ccccc4C3=O)cc2)cc1,-,MIC,-,-,-,-,0.5 µg/mL
O=C(Nc1ccc([N+](=O)[O-])cc1)C(=O)Nc1ccc([N+](=O)[O-])cc1,-,MIC,-,-,H37Rv,-,37 µM
C1=C(c2nc(-c3cccnc3)no2)c2ccccc2C12CCN(CC1CCCO1)CC2,-,MIC,Spiroindene-resistant,-,TB375,turbidity,>31 µM
C[C@]1(COc2ccc3nc(N4CCN(Cc5ccc(OC(F)(F)F)cc5)CC4)sc3c2)Cn2cc([N+](=O)[O-])nc2O1,-,MIC,-,-,H37Rv,-,0.2 µg/mL
COc1ccccc1C1SC(CC(=O)O)C(=O)N1c1cc(C(C)C)c(O)cc1C,100 µg/mL,inhibition,-,-,H37Rv,-,inactive
COc1ccc(Nc2[nH]n3c(=O)cc(C)nc3c2C(=O)Nc2ccc(F)c(Cl)c2)cc1,-,MIC,-,-,H37Rv,resazurin,25 µg/mL
CC1=NN(C(=O)c2ccncc2)C(=O)C1N=Nc1ccc2ccccc2c1,-,MIC,-,-,H37Rv,BACTEC,≥12.8 µg/mL
Cc1ccc2c(c1)NC(c1ccncc1)S2,-,MIC,-,-,H37Rv,-,50 µg/mL
C=CC[C@]1(O)C[C@H](n2cc(C)c(=O)[nH]c2=O)O[C@@H]1CO[Si](C)(C)C(C)(C)C,6.25 µg/mL,inhibition,-,-,H37Rv,resazurin,8%
Clc1cccc2c1NC(c1ccncc1)S2,-,MIC,-,-,H37Rv,-,6.3 µg/mL
Cc1cc(=O)n2[nH]c(Nc3ccc(Cl)c(Cl)c3)c(C(N)=O)c2n1,-,MIC,-,-,H37Rv,resazurin,6.25 µg/mL
CC(C)c1ccc(-c2cc3c(C#N)c(N)sc3s2)cc1,-,MIC,-,-,H37Rv,-,20.9 µM
c1ccc2c(c1)NC(c1ccc(C3Nc4ccccc4S3)cc1)S2,-,MIC,-,-,H37Rv,-,>200 µg/mL
CNC(=O)c1cccnc1,-,MIC bound,-,-,H37Rv,BACTEC,>12.5 µg/mL
Nc1cc(O)c(C(=O)O)cc1F,-,MIC90,Rifampicin-resistant,-,H37Rv,resazurin,6.25 µg/mL
N#Cc1ccc2oc3ccccc3c(=O)c2c1,4 µg/mL,inhibition,-,-,H37Rv,-,inactive
C[C@]1(COc2ccc(N3CCN(C/C=C/c4ccc(Cl)c(C(F)(F)F)c4)CC3)cc2)Cn2cc([N+](=O)[O-])nc2O1,-,MIC,-,-,H37Rv,-,0.012 µg/mL
COc1cc(C2C(Cl)C(=O)N2c2cc(C(C)C)c(O)cc2C)ccc1O,100 µg/mL,inhibition,-,-,H37Rv,-,inactive
C[N+](C)(C)CC(=O)N/N=C/c1ccncc1.[Cl-],12.5 µg/mL,inhibition,-,-,H37Rv,BACTEC,12%
O=C1O[C@H]2C(O)O[C@@H]3COC(=O)c4cc(O)c(O)c(O)c4-c4c(O)cc5oc(=O)c6c(c(O)c(O)c7oc(=O)c4c5c76)-c4c(cc(O)c(O)c4O)C(=O)OC3[C@@H]2OC(=O)c2cc(O)c(O)c(O)c2-c2c1cc(O)c(O)c2O,-,MIC,-,-,-,-,0.6 µg/mL
CCOC(=O)c1c(N)sc2sc(-c3cccc4ccccc34)cc12,-,MIC,-,-,H37Rv,-,1.1 µM
COC(=O)c1ccc2c(=O)c3cc([N+](=O)[O-])ccc3oc2c1C(=O)OC,2 µg/mL,inhibition,-,-,H37Rv,-,inactive
O=C(CCC(=O)Nc1ccc(Cl)c(Cl)c1)Nc1ccc(Cl)c(Cl)c1,-,MIC,-,-,H37Rv,-,250 µM
CCC(/C=C/C1=C(O)c2ccccc2C(=O)C1=O)CC,128 µg/mL,inhibition,-,-,H37Rv,BACTEC,100%
C#C[C@@]12O[C@]1(CO)[C@@H]1[C@@H](O)C[C@H]3C(C)(C)CCC[C@]3(C)[C@H]1CC2=O,-,MIC,-,-,Resistant strains,-,100 µg/mL
Cc1ccc2oc3ccccc3c(=O)c2c1[N+](=O)[O-],4 µg/mL,inhibition,-,-,H37Rv,-,inactive
O=C(CCC(=O)Nc1cccc(Cl)c1)Nc1cccc(Cl)c1,-,MIC,-,-,H37Rv,-,500 µM
Cc1c([N+](=O)[O-])cc2c(=O)c3cc([N+](=O)[O-])ccc3oc2c1C,8 µg/mL,inhibition,-,-,H37Rv,-,inactive
Cc1cc(O)c(C(C)C)cc1N1C(=O)C(CC(=O)O)SC1c1ccc(O)cc1,100 µg/mL,inhibition,-,-,H37Rv,-,inactive
C[C@]1(COc2ccc(N3CCC(Nc4ccc(Cl)cc4Cl)CC3)cc2)Cn2cc([N+](=O)[O-])nc2O1,-,MIC,-,-,H37Rv,-,0.012 µg/mL
CCOC(=O)c1c(N)sc2sc(-c3ccc(Cl)cc3)cc12,-,MIC,-,multidrug-resistant,MDR-TB,-,18.5 µM
Cc1ccnc2c1NC(=O)c1cccnc1N2C1CC1,6.25 µg/mL,inhibition,-,-,H37Rv,resazurin,17%
O=C(O)c1ccc2oc3ccccc3c(=O)c2c1,32 µg/mL,inhibition,-,-,H37Rv,-,inactive
CSC(=S)N/N=C(/C)c1cccs1,-,MIC bound,-,-,H37Rv,BACTEC,≤128 µg/mL
O=C(Nc1ccc(Br)cc1)C(=O)Nc1ccc(Br)cc1,-,MIC,-,-,H37Rv,-,4.1 µM
Cc1ccc(NC(=O)c2c(Nc3ccccc3)[nH]n3c(=O)cc(C)nc23)cc1,-,MIC,-,-,H37Rv,resazurin,50 µg/mL
c1ccc(B2OB(c3ccccc3)OB(c3ccccc3)O2)cc1,-,MIC bound,-,-,H37Rv,BACTEC,>128 µg/mL
O=C(O)c1ccc2oc3ccc([N+](=O)[O-])cc3c(=O)c2c1,32 µg/mL,inhibition,-,-,H37Rv,-,inactive
C[C@]1(COc2ccc(N3CCN(C/C=C/c4cccc(Cl)c4)CC3)cc2)Cn2cc([N+](=O)[O-])nc2O1,-,MIC,-,-,H37Rv,-,0.024 µg/mL
COc1ccc(Cc2noc(C3=CC4(CCN(CC5CCCO5)CC4)c4ccccc43)n2)cc1,-,MIC,-,-,H37Rv,resazurin,25 µM
Clc1ccc2c(c1)NC(c1cccnc1)S2,-,MIC,-,-,H37Rv,-,1.6 µg/mL
CCC(C)c1ccc(NC(=O)CCC(=O)Nc2ccc(C(C)CC)cc2)cc1,-,MIC,-,-,H37Rv,-,500 µM
NC(=S)NNS(=O)(=O)c1ccc(N)cc1,-,MIC,-,-,-,-,1 µg/mL
COc1ccc(C2C(Cl)C(=O)N2C2=NN3C(=CSC3c3ccc(N(C)C)cc3)S2)cc1,-,MIC,-,-,H37Rv,resazurin,3.125 µg/mL
Nc1ccc(S(=O)(=O)c2ccc(NC3=CC(=O)c4ccccc4C3=O)cc2)cc1,-,MIC,-,-,-,-,1.5 µg/mL
C=C[C@H]1CN2CC[C@H]1C[C@H]2[C@H](O)c1ccnc2ccc(OC)cc12,6.25 µg/mL,inhibition,-,-,H37Rv,resazurin,-2%
CC(C)=CC1C[C@](C)(O)C2C3CCC4C(CC=C5C(C)(C)[C@@H](O[C@@H]6OC[C@@H](O)[C@H](OC7O[C@H](CO)[C@@H](O)[C@H](OC(=O)/C=C/c8ccc(O)cc8)[C@H]7O)[C@H]6O[C@@H]6O[C@@H](CO)[C@H](O)[C@H]6O)CC[C@@]54C)C34CC2(OO4)O1,-,MIC,-,-,-,-,10 µg/mL
Cn1cc(NC(=O)c2cc([N+](=O)[O-])cn2C)cc1C(=O)Nc1cc(S(=O)(=O)O)c2cc(S(=O)(=O)O)cc(S(=O)(=O)O)c2c1,-,MIC bound,-,-,H37Rv,BACTEC,>12.5 µg/mL
CC(=O)NC[C@H]1CN(c2ccc(N3CCOCC3)c(F)c2)C(=O)O1,-,MIC,INH RIF resistant,-,Clinical isolate 309,resazurin,0.5 µg/mL
Cc1ccc(-c2cc3c(C#N)c(N)sc3s2)cc1,-,MIC,-,multidrug-resistant,MDR-TB,-,23.1 µM
c1ccc(C2(c3ccccn3)Nc3ccccc3S2)nc1,-,MIC,-,-,H37Rv,-,12.5 µg/mL
COc1cc2c(cc1OC)C1CC(=O)C(C3(O)C(=O)Nc4ccccc43)CN1CC2,-,MIC,-,-,H37Rv,BACTEC,≥12.5 µg/mL
FC(F)(F)c1ccc2c(c1)NC(c1ccccn1)S2,-,MIC,-,-,H37Rv,-,1.6 µg/mL
COc1ccccc1C1C(Cl)C(=O)N1C1=NN2C(=CSC2c2ccc(N(C)C)cc2)S1,-,MIC,-,-,H37Rv,resazurin,3.125 µg/mL
c1ccc2c(c1)NC(c1nc3ccccc3s1)S2,-,MIC,-,-,H37Rv,-,50 µg/mL
Nc1ccc(S(=O)(=O)Nc2ccc(C(=O)O)c(O)c2)cc1,-,MIC,-,-,-,-,1.5 µg/mL

Repeating the first 6 entries:

compound | dose | endpoint | changes | setting | strain | read by | result
Cc1ccc2c(c1)nc1cc(Nc3ccc(Cl)cc3)c(=NC3CCCCCCC3)cc-1n2-c1ccc(Cl)cc1 | - | MIC | - | - | H37Rv | - | 0.2 µg/mL
Cc1ccc2c(c1)NC(c1ccccn1)S2 | - | MIC | - | - | H37Rv | - | 3.1 µg/mL
CC(=O)NC1=C(Cl)C(=O)c2ccccc2C1=O | - | MIC bound | - | - | H37Rv | BACTEC | ≤12.5 µg/mL
COC(=O)c1ccc2oc3c(C(=O)OC)cc([N+](=O)[O-])cc3c(=O)c2c1 | 4 µg/mL | inhibition | - | - | H37Rv | - | inactive
COc1ccc(C=C2C(=O)N=C(C)N2c2cc(C(C)C)c(O)cc2C)cc1 | 100 µg/mL | inhibition | - | - | H37Rv | - | inactive
CN1CCC(CN2c3ccccc3Sc3ccccc32)C1 | - | MIC | - | - | H37RA 16 | - | 5 µg/mL